# In article PMC6416295:
# What was measured:
# [1] = target: HlyU C30S (Vibrio vulnificus MO6-24/O) (UniProt A0A3Q0L222); assay: EMSA; conditions: HlyU 100 nM, 10 mM Tris-Cl pH 7.5, 50 mM KCl, 5 mM MgCl2, 5% glycerol, 0.1 ug poly(dI-dC) in 20 ul, 5 nM DNA, 25 C, 0.5 h, 6% native PAGE, recombinant protein, residues 1-98, protein details: His6 (pProEX-HTa), label: 32P 5' label on PrtxA-EMSA-R strand, probe letters rebuilt from the primers and the genome
# [2] = target: HlyU (Vibrio vulnificus MO6-24/O) (UniProt A0A3Q0L222); assay: EMSA; conditions: 10 mM Tris-Cl pH 7.5, 50 mM KCl, 5 mM MgCl2, 5% glycerol, 0.1 ug poly(dI-dC) in 20 ul, 5 nM DNA, 25 C, 0.5 h, 6% native PAGE, recombinant protein, residues 1-98, protein details: His6 (pProEX-HTa), label: 32P 5' label on PrtxA-EMSA-R strand, probe letters rebuilt from the primers and the genome
sequence,measurement,setting,value
TCAAATAAAATGGCGGGTGTTTTTATTTTCTCTATGTTTTTAAATTGTGAATGTTTTGTGGTTATTCTTACTTTGTTTGCTTTTTGTATTTTTTCGAGTTCATCTTTGTAATTATTAGTTTTTGTTAAATTAGCATTTTCTTTAAATTGTTCTCTATTACCGCTGATGATACTTAAATAAAAGTGAATACATATCAGCGTCAACCCTTCATTGTTGGACATAATTAAATTACTTAGCCGATGTTTATTGCAGCGTTTTTGAAGG (double strand) [PrtxA 264-bp],binding result,[1]; 10 uM CM14 (binding less affected than WT),binds
same,binding result,[1]; 10% DMSO,binds
same,binding result,"[2]; 20 uM random control chemical, HlyU 50 or 100 nM",binds
same,pKd,[2]; without CM14,7.60

# pKd: −log10 of the molar value. Construct, isoform or probe ends are uncertain for at least one entry. For some of these results: At least one verdict was read from the data and is not stated in words by the source.
